Compound potency records, mixed from different reports. Data source: NIAID ChemDB in PubChem.

Shared fields: tests in culture; agent: Herpes simplex virus 1; method: cytopathic effect; read-out: EC50

Conditions beyond the fields shown may differ between rows. An empty or dashed field is not shown. ECn: concentration that inhibits the pathogen or its effect by n%.

smiles | strain or isolate | cell line | result
Nc1nc2c(ncn2CC/C=C/P(=O)(O)O)c(=O)[nH]1 | SC16 | MRC-5 | >300 µM
CC1=C(C)C(CO)(CO)C[C@H]1n1cnc2c(N)ncnc21 | - | VERO | >100 µg/mL
Nc1nc2c(ncn2COCCO)c(=O)[nH]1 | TK- | VERO | >44 µM
OC[C@H]1O[C@@H](n2cnc3cc(Cl)c(Cl)cc32)[C@@H](O)[C@H]1O | KOS | E6SM | >40 µg/mL
C=C(C)[C@@H]1CC[C@]2(CO)CC[C@]3(C)[C@H](CC[C@@H]4[C@@]5(C)CC[C@H](O)C(C)(C)[C@@H]5CC[C@]43C)[C@@H]12 | KOS | HeLa | >200 µg/mL
CC1=C(C)C(CO)(CO)C[C@H]1n1ccc(N)nc1=O | - | VERO | >100 µg/mL
Nc1ncnc2c1ccn2[C@@H]1O[C@H](CO)[C@@H](O)[C@H]1O | - | PRK | >0.1 µg/mL
Nc1ncnc2c1ncn2OCCOCP(=O)(O)O | SC16 | MRC-5 | >300 µM
O=C(OCc1ccccc1)P(=O)(O)OC[C@H]1O[C@@H](n2cc(CCCl)c(=O)[nH]c2=O)C[C@@H]1O | TK- | VERO | >20.5 µM
Nc1nc(N)c2ncn(CC/C=C/P(=O)(O)O)c2n1 | SC16 | MRC-5 | >300 µM
COc1cc(O)c(CC=C(C)C)c(O)c1C(=O)/C=C/c1ccc(O)cc1 | - | VERO | 2.7 µg/mL
O=c1[nH]c(=O)n([C@H]2C[C@H](O)[C@@H](CO)O2)cc1/C=C/Br | Three isolates pooled | PRK | >1302 µM
OC[C@H]1O[C@@H](n2cnc3cc(Cl)c(Cl)cc32)[C@H](O)[C@H]1O | KOS | E6SM | >4 µg/mL
Nc1nc2c(ncn2OC(/C=C/P(=O)(O)O)CO)c(=O)[nH]1 | SC16 | MRC-5 | >300 µM
CC(=O)O[C@@H]1OC(=O)[C@](C)(C(C)=O)[C@@H]1C | KOS | HeLa | >200 µg/mL
OCCOC(CO)n1cnc2cc(Cl)c(Cl)cc21 | KOS | E6SM | >200 µg/mL
O=C(O)P(=O)(O)O | BRAND | VERO | >238 µM
Nc1nc2c(ncn2COCCO)c(=O)[nH]1 | MAYO 1814 | BSC-1 | 0.15 µg/mL
CN[C@@H]1[C@@H](O)[C@@H](O[C@@H]2[C@@H](O)[C@H](O[C@H]3OC([C@H](C)N)=CC[C@H]3N)[C@@H](N)C[C@H]2N)OC[C@]1(C)O | KOS | HeLa | >200 µg/mL
O=C(CP(=O)(O)O)O[C@H]1C[C@H](n2cc(CCCl)c(=O)[nH]c2=O)O[C@@H]1CO | BRAND | VERO | >24.2 µM
Nc1ncnc2c1ncn2CC/C=C/P(=O)(O)O | SC16 | MRC-5 | >300 µM
CCOC(=O)P(=O)(O)OC[C@H]1O[C@@H](n2cc(CCCl)c(=O)[nH]c2=O)C[C@@H]1O | BRAND | VERO | >23.4 µM
O=[N+]([O-])c1cc(Cl)c(Cl)cc1[N+](=O)[O-] | KOS | E6SM | >1 µg/mL
O=C(O)CP(=O)(O)OC[C@H]1O[C@@H](n2cc(CCCl)c(=O)[nH]c2=O)C[C@@H]1O | TK- | VERO | >23.2 µM
O[C@H]1[C@@H](O)COC(n2cnc3cc(Cl)c(Cl)cc32)[C@@H]1O | KOS | E6SM | >400 µg/mL
CCOC(=O)CP(=O)(OC)OC[C@H]1O[C@@H](n2cc(I)c(=O)[nH]c2=O)C[C@@H]1O | TK- | VERO | >57.9 µM
Nc1ncnc2c1ncn2OC(/C=C/P(=O)(O)O)CO | SC16 | MRC-5 | >300 µM
Nc1ncnc2c1ncn2C[C@H](O)CO | - | PRK | >400 µg/mL
CC(C)CC1NC(=O)C(NC(=O)c2ncccc2O)C(C)OC(=O)C(c2ccccc2)N(C)C(=O)C(C)NC(=O)C(C(C)C(C)C)N(C)C(=O)CN(C)C(=O)C2CC(O)CN2C1=O | KOS | HeLa | >200 µg/mL
NC(=O)c1c[se]c([C@@H]2O[C@H](CO)[C@@H](O)[C@H]2O)n1 | KOS | HeLa | 2 µg/mL
CC(=O)NC1[C@H](COC[C@@H]2C(CO)O[C@@H](COC[C@@H]3C(CO)O[C@@H](O)C(NC(C)=O)[C@@H]3O)C(NC(C)=O)[C@@H]2O)OC(CO)[C@@H](O)[C@H]1O | KOS | HeLa | >200 µg/mL
C=C(/C=C/P(=O)(O)O)Cn1cnc2c(=O)[nH]c(N)nc21 | SC16 | MRC-5 | >300 µM

Repeating the final 4 entries:

smiles,strain or isolate,cell line,result
CC(C)CC1NC(=O)C(NC(=O)c2ncccc2O)C(C)OC(=O)C(c2ccccc2)N(C)C(=O)C(C)NC(=O)C(C(C)C(C)C)N(C)C(=O)CN(C)C(=O)C2CC(O)CN2C1=O,KOS,HeLa,>200 µg/mL
NC(=O)c1c[se]c([C@@H]2O[C@H](CO)[C@@H](O)[C@H]2O)n1,KOS,HeLa,2 µg/mL
CC(=O)NC1[C@H](COC[C@@H]2C(CO)O[C@@H](COC[C@@H]3C(CO)O[C@@H](O)C(NC(C)=O)[C@@H]3O)C(NC(C)=O)[C@@H]2O)OC(CO)[C@@H](O)[C@H]1O,KOS,HeLa,>200 µg/mL
C=C(/C=C/P(=O)(O)O)Cn1cnc2c(=O)[nH]c(N)nc21,SC16,MRC-5,>300 µM